Assay [1] has as its system C. glabrata YEM19 (over-expressing the CgCDR1 and CgCDR2 pumps). The experiment in a line: Checkerboard / broth microdilution assay, potentiation of fluconazole vs. C. glabrata. To be noted: for MIC: Nakaseomyces glabratus, 48 h; for MPC8: in combination with fluconazole, strain YEM19. Background: Dilution methods test growth across graded concentrations, often in twofold steps.

The test system of assay [2] is Candida albicans YEM15 (over-expressing the CDR1 and CDR2 pumps). Briefly: Checkerboard / broth microdilution assay, potentiation of fluconazole vs. C. albicans. To be noted: for MIC: Candida albicans, 48 h; for MPC8 = concentration of efflux pump inhibitor necessary to reduce the fluconazole MIC 8-fold: in combination with fluconazole, strain YEM15.

Bounds are passed on as bounds.

Usually MIC stands for the least concentration at which growth counts as inhibited.

Consider `COc1ccc(N(C(=O)Nc2ccc(F)cc2)C(C)c2nc3ccccc3c(=O)n2N2CCN(C(=O)Cn3ccc(=O)cc3)CC2)c(OC)c1` (stereo not drawn) [Compound 148], for which, in assay [1], the MIC was > 32 µg/mL and the MPC8 amounted to 16 µg/mL. Also, in assay [2], the MIC was > 32 µg/mL and the “MPC8 = concentration of efflux pump inhibitor necessary to reduce the fluconazole MIC 8-fold” value was 32 µg/mL.

On to `COc1ccc(N(C(=O)Nc2ccc(Cl)cc2)C(C)c2nc3ccccc3c(=O)n2N2CCN(CCCC(=O)NS(C)(=O)=O)CC2)c(OC)c1` (stereo not drawn) [Compound 151], for which, in assay [1], the MIC is > 32 µg/mL and the MPC8 came out at 32 µg/mL. For the same molecule, in assay [2], the minimal inhibitory concentration (MIC) is > 32 µg/mL and the “MPC8 = concentration of efflux pump inhibitor necessary to reduce the fluconazole MIC 8-fold” value worked out at 32 µg/mL.

For the molecule `COCCOCC(=O)N1CCN(n2c(C(C)N(C(=O)Nc3ccc(F)cc3)c3ccc(OC)cc3OC)nc3ccccc3c2=O)CC1` (stereo not drawn) [Compound 152], in assay [1], the MIC is > 32 µg/mL and the MPC8 was determined as 0.5 µg/mL. In assay [2], the MIC was > 32 µg/mL and the “MPC8 = concentration of efflux pump inhibitor necessary to reduce the fluconazole MIC 8-fold” value is 0.5 µg/mL.

On to `COCCOCCOCC(=O)N1CCN(n2c(C(C)N(C(=O)Nc3ccc(F)cc3)c3ccc(OC)cc3OC)nc3ccccc3c2=O)CC1` (stereo not drawn) [Compound 153], for which, in assay [1], the MIC is > 32 µg/mL and the MPC8 is 1 µg/mL. Further, in assay [2], the MIC was > 32 µg/mL and the “MPC8 = concentration of efflux pump inhibitor necessary to reduce the fluconazole MIC 8-fold” value was 2 µg/mL.

Consider `COCCOCC(=O)N1CCN(n2c(C(C)N(C(=O)Nc3ccc(F)cc3)c3ccc(OC)nc3OC)nc3ccccc3c2=O)CC1` (stereo not drawn) [Compound 154], for which, in assay [1], the MIC was > 32 µg/mL and the MPC8 turned out to be 1 µg/mL. Further, in assay [2], the MIC was > 32 µg/mL and the “MPC8 = concentration of efflux pump inhibitor necessary to reduce the fluconazole MIC 8-fold” value is 2 µg/mL.

Turning to `COc1ccc(N(C(=O)Nc2ccc(F)cc2)C(C)c2nc3ccccc3c(=O)n2N2CCN(C(=O)Cc3c[nH]cn3)CC2)c(OC)c1` (stereo not drawn) [Compound 155], in assay [1], the MIC is > 32 µg/mL and the MPC8 is 1 µg/mL. In assay [2], the MIC is > 32 µg/mL and the “MPC8 = concentration of efflux pump inhibitor necessary to reduce the fluconazole MIC 8-fold” value came out at 8 µg/mL.

Turning to `COc1ccc(N(C(=O)Nc2ccc(F)cc2)C(C)c2nc3ccccc3c(=O)n2N2CCN(C(=O)[C@@H]3CCCN3)CC2)c(OC)n1` (stereo partly drawn) [Compound 157], in assay [1], the MIC was > 32 µg/mL and the MPC8 stood at 4 µg/mL. In addition, in assay [2], the MIC is > 32 µg/mL and the “MPC8 = concentration of efflux pump inhibitor necessary to reduce the fluconazole MIC 8-fold” value is 16 µg/mL.

In the case of `COc1ccc(N(C(=O)Nc2ccc(F)cc2)C(C)c2nc3cc(F)c(F)cc3c(=O)n2N2CCN(C(=O)[C@@H]3CCCN3)CC2)c(OC)c1` (stereo partly drawn) [Compound 158], in assay [1], the MIC was > 32 µg/mL and the MPC8 was determined as 2 µg/mL. In addition, in assay [2], the MIC was > 32 µg/mL and the “MPC8 = concentration of efflux pump inhibitor necessary to reduce the fluconazole MIC 8-fold” value is 16 µg/mL.

In the case of `COc1ccc(N(C(=O)Nc2ccc(F)cc2)C(C)c2nc3cc(F)ccc3c(=O)n2N2CCN(C(=O)Cc3c[nH]cn3)CC2)c(OC)c1` (stereo not drawn) [Compound 161], in assay [1], the MIC was > 32 µg/mL and the MPC8 was 4 µg/mL. Further, in assay [2], the MIC was > 32 µg/mL and the “MPC8 = concentration of efflux pump inhibitor necessary to reduce the fluconazole MIC 8-fold” value amounted to 32 µg/mL.

As to `COc1ccc(N(C(=O)Nc2ccc(F)cc2)C(C)c2nc3ccccc3c(=O)n2N2CCN(C(=O)Cc3cn(C)cn3)CC2)c(OC)c1` (stereo not drawn) [Compound 162], in assay [1], the minimum inhibitory concentration (MIC) is > 32 µg/mL and the MPC8 stood at 0.5 µg/mL. For the same molecule, in assay [2], the MIC is > 32 µg/mL and the “MPC8 = concentration of efflux pump inhibitor necessary to reduce the fluconazole MIC 8-fold” value amounted to 1 µg/mL.

Regarding `COc1ccc(N(C(=O)Nc2ccc(F)cc2)C(C)c2nc3ccccc3c(=O)n2N2CCN(C(=O)CCNC(=O)OC(C)(C)C)CC2)c(OC)c1` (stereo not drawn) [Compound 163], in assay [1], the MIC is > 32 µg/mL and the MPC8 is 2 µg/mL. Also, in assay [2], the MIC is > 32 µg/mL and the “MPC8 = concentration of efflux pump inhibitor necessary to reduce the fluconazole MIC 8-fold” value stood at 2 µg/mL.

Take `COc1ccc(N(C(=O)Nc2ccc(F)cc2)C(C)c2nc3ccccc3c(=O)n2N2CCN(C(=O)[C@H](C)NC(=O)OC(C)(C)C)CC2)c(OC)c1` (stereo partly drawn) [Compound 164]: in assay [1], the MIC is > 32 µg/mL and the MPC8 was found to be 1 µg/mL. In assay [2], the MIC was > 32 µg/mL and the “MPC8 = concentration of efflux pump inhibitor necessary to reduce the fluconazole MIC 8-fold” value was found to be 2 µg/mL.

On to `COc1ccc(N(C(=O)Nc2ccc(F)cc2)C(C)c2nc3ccccc3c(=O)n2N2CCN(C(=O)[C@H](CO)NC(=O)OC(C)(C)C)CC2)c(OC)c1` (stereo partly drawn) [Compound 165], for which, in assay [1], the MIC is > 32 µg/mL and the MPC8 came to 2 µg/mL. Further, in assay [2], the MIC was > 32 µg/mL and the “MPC8 = concentration of efflux pump inhibitor necessary to reduce the fluconazole MIC 8-fold” value was 4 µg/mL.

Turning to `COc1ccc(N(C(=O)Nc2ccc(F)cc2)C(C)c2nc3ccccc3c(=O)n2N2CCN(C(=O)CN(C)C(=O)OC(C)(C)C)CC2)c(OC)c1` (stereo not drawn) [Compound 166], in assay [1], the MIC is > 32 µg/mL and the MPC8 came out at 0.5 µg/mL. In addition, in assay [2], the MIC is > 32 µg/mL and the “MPC8 = concentration of efflux pump inhibitor necessary to reduce the fluconazole MIC 8-fold” value is 1 µg/mL.

Consider `COc1ccc(N(C(=O)Nc2ccc(F)cc2)C(C)c2nc3ccccc3c(=O)n2N2CCN(C(=O)C[C@@H]3CCCN3C(=O)OC(C)(C)C)CC2)c(OC)c1` (stereo partly drawn) [Compound 167], for which, in assay [1], the MIC is > 32 µg/mL and the MPC8 was 2 µg/mL. For the same molecule, in assay [2], the MIC is > 32 µg/mL and the “MPC8 = concentration of efflux pump inhibitor necessary to reduce the fluconazole MIC 8-fold” value worked out at 2 µg/mL.

Take `COc1ccc(N(C(=O)Nc2ccc(F)cc2)C(C)c2nc3ccccc3c(=O)n2N2CCN(C(=O)C3CCN(C(=O)OC(C)(C)C)CC3)CC2)c(OC)c1` (stereo not drawn) [Compound 168]: in assay [1], the MIC was > 32 µg/mL and the MPC8 is 4 µg/mL. Moreover, in assay [2], the MIC was > 32 µg/mL and the “MPC8 = concentration of efflux pump inhibitor necessary to reduce the fluconazole MIC 8-fold” value was 8 µg/mL.

Take `COc1ccc(N(C(=O)Nc2ccc(F)cc2)C(C)c2nc3ccccc3c(=O)n2N2CCN(C3=NCCO3)CC2)c(OC)c1` (stereo not drawn) [Compound 173]: in assay [1], the MIC was > 32 µg/mL and the MPC8 worked out at 2 µg/mL. Moreover, in assay [2], the MIC is > 32 µg/mL and the “MPC8 = concentration of efflux pump inhibitor necessary to reduce the fluconazole MIC 8-fold” value worked out at 16 µg/mL.

On to `COc1ccc(N(C(=O)Nc2cccc(Cl)c2)C(C)c2nc3ccccc3c(=O)n2N2CCN(C(N)=O)CC2)c(OC)c1` (stereo not drawn) [Compound 174], for which, in assay [1], the MIC is > 32 µg/mL and the MPC8 worked out at 8 µg/mL. Moreover, in assay [2], the MIC was > 32 µg/mL and the “MPC8 = concentration of efflux pump inhibitor necessary to reduce the fluconazole MIC 8-fold” value came to 0.5 µg/mL.

Turning to `C=CS(=O)(=O)N1CCN(n2c(C(C)N(C(=O)Nc3ccc(F)cc3)c3ccc(OC)cc3OC)nc3ccccc3c2=O)CC1` (stereo not drawn) [Compound 175], in assay [1], the MIC is > 32 µg/mL and the MPC8 was determined as 1 µg/mL. In assay [2], the MIC is > 32 µg/mL and the “MPC8 = concentration of efflux pump inhibitor necessary to reduce the fluconazole MIC 8-fold” value is on record as “≦0.03 μg/ml”.

For the molecule `COc1ccc(N(C(=O)Nc2ccc(F)cc2)C(C)c2nc3ccccc3c(=O)n2N2CCN(CCCC(=O)NS(=O)(=O)c3ccccc3)CC2)c(OC)c1` (stereo not drawn) [Compound 179], in assay [1], the MIC is > 32 µg/mL and the MPC8 was 16 µg/mL. In assay [2], the MIC is > 32 µg/mL and the “MPC8 = concentration of efflux pump inhibitor necessary to reduce the fluconazole MIC 8-fold” value came out at 32 µg/mL.

`COc1ccc(N(C(=O)Nc2ccc(F)cc2)C(C)c2nc3ccccc3c(=O)n2N2CCN(CCCC(=O)NS(C)(=O)=O)CC2)c(OC)c1` (stereo not drawn) [Compound 180]: in assay [1], the MIC was > 32 µg/mL and the MPC8 stood at 16 µg/mL. In assay [2], the MIC was > 32 µg/mL and the “MPC8 = concentration of efflux pump inhibitor necessary to reduce the fluconazole MIC 8-fold” value worked out at 32 µg/mL.

The record behind these values is US20030220338A1, “Fungal efflux pump inhibitors” (priority 2001, published 2003).
